Test results taken from paper PMC3878761, “Interactions of peptide triazole thiols with Env gp120 induce irreversible breakdown and inactivation of HIV-1 virions” (Retrovirology, 2013).

Tested on: HIV-1 BaL pseudovirus infection of HOS CD4^-ve CCR5^+ve cells
Assay: enhancement of infection of CD4 negative cells
Details: n=3

CC[C@H](C)[C@H](NC(=O)[C@@H](N)CCCNC(=N)N)C(=O)N[C@@H](CC(N)=O)C(=O)N[C@@H](CC(N)=O)C(=O)N[C@H](C(=O)N1C[C@@H](n2cc([C]34[CH]5[CH]6[CH]7[CH]3[Fe]6754389%10[CH]4[CH]3[CH]8[CH]9[CH]4%10)nn2)C[C@H]1C(=O)N[C@@H](Cc1c[nH]c2ccccc12)C(=O)N[C@@H](CO)C(=O)N[C@@H](CCC(=O)O)C(=O)N[C@@H](C)C(=O)N[C@@H](CCSC)C(=O)N[C@@H](CCSC)C(=O)NCCC(=O)N[C@@H](CCC(N)=O)C(=O)NCCC(=O)N[C@@H](CS)C(N)=O)[C@@H](C)CC (stereo partly shown) [KR13]
enhancement of infection of CD4 negative cells: no enhancement of infection was observed
